A mixed list of measured activities; the numbers were collected in NIAID ChemDB.

All rows: growth or infection tests; organism: Rhinovirus

An empty or dashed field is not shown.

compound	strain	cell line	read by	endpoint	dose	value
O=S(=O)([O-])c1ccc(O)c2ccccc12		Human embryonic lung cells	cytopathic effect	inhibition	10 µg/mL	63%
CN(C)c1nc(C(F)(F)F)nc2c1ncn2Cc1ccc(Cl)c(N)c1	Serotype 29	M-HELA	plaque count	inhibition	8 µM	26%
Cc1cc(CCCCCCCOc2ccc(C3=NCCO3)cc2)on1	TYPE 2			MIC		3.8 µM
COc1ccc(Cn2cnc3c(N(C)C)nc(C(F)(F)F)nc32)cc1C	Serotype 29	M-HELA	plaque count	inhibition	8 µM	27%
FC(F)(F)c1cccc(C2CCN(c3ccc(Cl)nn3)C2)c1	100 serotypes			inhibition	17 µg/mL	71%
CCOC(=O)c1ccc(OCCCCOc2ccc(-c3snc(SC)c3C#N)cc2)cc1	Serotype 39 (group B)	HELA-OHIO	cytopathic effect	EC50		>2 µM
Cc1cc(CCCCCOc2c(Cl)cc(C3=NCCO3)cc2Cl)on1	serotype 1A 1B 2 6 14 15 21 22 25 29 30 41 42 45 59 63 67 70 72 86 89			MIC80		2.32 µM
Cc1cc(CCCOc2c(C)cc(-c3noc(C(F)(F)F)n3)cc2C)on1	Serotype 2			EC90		0.05 µM
CSc1nsc(-c2ccc(OC(C)(C)C)cc2)c1C#N	Serotype 63 (group B)	HELA-OHIO	cytopathic effect	EC50		>40 µM
Nc1cc(S(=O)(=O)[O-])cc2cc(S(=O)(=O)[O-])ccc12		Human amnion AV3 cells	cytopathic effect	inhibition	10 µg/mL	5%
CSc1nsc(-c2ccc(OCCCOc3ccccc3)cc2)c1C#N	Serotype 9 (group B)	HELA-OHIO	cytopathic effect	EC50		>20 µM
CCSc1ncnc2c1ncn2[C@@H]1OC2COP(=O)(O)OC2[C@H]1O	TYPE 13			MIC		1–32 µg/mL
Nc1c(S(=O)(=O)O)cc2cc(S(=O)(=O)O)cc(O)c2c1O		Human amnion AV3 cells	cytopathic effect	inhibition	5 µg/mL	30%
CCOC(=O)c1ccc(OCCC2CCN(c3ccc(C)nn3)CC2)cc1	Serotype 14			EC90		0.13 µM
CSc1nsc(-c2ccc(OCCCc3ccccc3)cc2)c1C#N	Serotype 70 (group A)	HELA-OHIO	cytopathic effect	EC50		>20 µM
Nc1nc2c(ccn2[C@@H]2C[C@H](CO)[C@@H](O)[C@@H]2O)c(=O)[nH]1	TYPE 31			MIC		>100 µg/mL
Fc1cccc(Cn2cnc3c(Nc4cccc(F)c4)nc(C(F)(F)F)nc32)c1	Serotype 14	M-HELA	plaque count	EC50		7 µM
CSc1ncnc2c1ncn2[C@@H]1OC2COP(=O)(O)OC2[C@H]1O	TYPE 1A			MIC		1–3.2 µg/mL
N#Cc1ccc(OCCCCC(=O)c2ccc(F)cc2)cc1	serotype 1A 1B 2 6 14 15 21 22 25 29 30 41 42 45 59 63 67 70 72 86 89			MIC80		>35 µM
CC(CC#N)NC(=O)C1CCC(N)=N1	Serotype 2			MIC		200 µg/mL
Cc1ccc(CCCOc2c(C)cc(-c3noc(C)n3)cc2C)nn1	serotypes 2 14 1A 1B 6 21 22 15 25 30 50 67 89 86 41	HeLa	cytopathic effect	EC80		0.272 µg/mL
N#Cc1cc([N+](=O)[O-])ccc1Oc1ccc(Cl)c(Cl)c1	TYPE 1A	VERO		inhibition	0.19 µg/mL	34%
COCc1ccc(CCCOc2cc(C)c(-c3noc(C)n3)c(C)c2)nn1	serotypes 3 4 5 9 16 18 38 66 75 67	HeLa	cytopathic effect	EC80		0.44 µg/mL
CSc1nsc(-c2ccc(OCc3ccccc3)cc2)c1C#N	Serotype 29 (group B)	HELA-OHIO	cytopathic effect	EC50		20 µM
N#CCNC(=O)C1CCC(N)=N1	Serotype 2			MIC		>100 µg/mL
Cc1cc(CCCCCOc2cc(Cl)c(-c3nnc(C)o3)c(Cl)c2)on1	Serotype 6			MIC80		0.46 µg/mL
Cc1cc(CCCOc2c(C)cc(-c3noc(C(F)(F)F)n3)cc2C)on1	Isolate 31	OHIO HELA-I	cytopathic effect / visual reading	EC50		1.45 µg/mL
CC(=O)c1ccc(CCCOc2cc(C)c(-c3noc(C)n3)c(C)c2)nn1	serotypes 3 4 5 9 16 18 38 66 75 67	HeLa	cytopathic effect	EC80		0.67 µg/mL
Nc1ccc(Cn2cnc3c(Nc4cccc(F)c4)nc(C(F)(F)F)nc32)cc1	Serotype 5	M-HELA	plaque count	EC50		>40 µM
CN(C)c1nc(C(F)(F)F)nc2c1ncn2Cc1ccc(Cl)cc1Cl	Serotype 18	M-HELA	plaque count	inhibition	8 µM	32%
CCCCCCCCCCCCCCOc1ccc(C(C)=O)o1	17 serotypes			inhibition	0.355 µg/mL	53%
Cc1nc(-c2cc(C)c(OCCCc3ccc(C(F)F)o3)c(C)c2)no1	serotypes 3 4 5 9 16 18 38 66 75 67	HeLa	cytopathic effect	EC80		3.087 µg/mL
Cc1cc(CCCCCCCOc2ccc(C3=NC(C)(C)CO3)cc2)on1	TYPE 2			MIC		1.5 µM
O=S(=O)([O-])c1ccccc1S(=O)(=O)[O-]		Human embryonic lung cells	cytopathic effect	inhibition	5 µg/mL	0%
Cc1cc(CCCCCOc2cc(Cl)c(-c3nnco3)c(Cl)c2)on1	Serotype 30			MIC80		0.1 µg/mL
O=C(CCCCOc1ccc(C2=NCCO2)cc1)c1ccc(Cl)cc1	serotype 1A 1B 2 6 14 15 21 22 25 29 30 41 42 45 59 63 67 70 72 86 89			MIC80		>280 µM
CCOC(=O)c1ccc(OCCC2CCN(c3ccc(C)nn3)CC2)cc1	41467 (ICAM-1 receptor group 89)	KB	neutral red	EC50		0.022 µM
Cc1cccc(N2CCN(c3ccc(Br)nn3)CC2)c1	100 serotypes			inhibition	1.4 µg/mL	53%
Cc1cc(Cl)ccc1Cn1cnc2c(N(C)C)nc(C(F)(F)F)nc21	Serotype 15	M-HELA	plaque count	inhibition	8 µM	11%
CSc1nsc(-c2ccc(OCCOc3ccccc3)cc2)c1C#N	Serotype 72 (group A)	HELA-OHIO	cytopathic effect	EC50		>20 µM
O=C(Nc1ccc2cc(S(=O)(=O)[O-])cc(S(=O)(=O)[O-])c2c1)c1ccccc1		Human amnion AV3 cells	cytopathic effect	inhibition	5 µg/mL	0%
CN=C1CCC(C(=O)NCCC#N)N1	Serotype 2			MIC		>100 µg/mL
Cc1cc(OCCCc2ccc(Cl)nn2)cc(C)c1-c1noc(C(F)F)n1	serotypes 3 4 5 9 16 18 38 66 75 67	HeLa	cytopathic effect	EC80		0.03 µg/mL
CCN=C1CCC(C(=O)NCCC#N)N1	Serotype 2			MIC		>100 µg/mL
CCOC(=O)c1ccc(OCCCOc2ccc(-c3snc(SC)c3C#N)cc2)cc1	Serotype 85 (group B)	HELA-OHIO	cytopathic effect	EC50		>2 µM
CCOC(=O)c1cc(Cl)c(OCCCCC(=O)c2ccc(Cl)cc2)c(Cl)c1	serotype 1A 1B 2 6 14 15 21 22 25 29 30 41 42 45 59 63 67 70 72 86 89			MIC80		>102 µM
CSc1nsc(-c2ccc(OCCCCOc3ccc(C#N)cc3)cc2)c1C#N	Serotype 2 (group B)	HELA-OHIO	cytopathic effect	EC50		>2 µM
CC1(C)COC(c2ccc(OCCN3CCN(c4ccc(Cl)nn4)CC3)cc2)=N1	17 serotypes			inhibition	32 µg/mL	53%
CN(C)c1nc(C(F)(F)F)nc2c1ncn2Cc1ccc(F)cc1	Serotype 31	M-HELA	plaque count	inhibition	8 µM	47%
N=CCCCCNC(=O)C1CCC(N)=N1	Serotype 2			MIC		>100 µg/mL
CSc1nsc(-c2ccc(OCCc3ccccc3)cc2)c1C#N	Serotype 51 (group B)	HELA-OHIO	cytopathic effect	EC50		>20 µM
CCOc1cc(O)c(C(=O)/C=C/c2ccc(OC)cc2)c(OC)c1	100 serotypes			inhibition	0.022 µg/mL	18%

The last 8 rows once more:

compound,strain,cell line,read by,endpoint,dose,value
CCOC(=O)c1ccc(OCCCOc2ccc(-c3snc(SC)c3C#N)cc2)cc1,Serotype 85 (group B),HELA-OHIO,cytopathic effect,EC50,,>2 µM
CCOC(=O)c1cc(Cl)c(OCCCCC(=O)c2ccc(Cl)cc2)c(Cl)c1,serotype 1A 1B 2 6 14 15 21 22 25 29 30 41 42 45 59 63 67 70 72 86 89,,,MIC80,,>102 µM
CSc1nsc(-c2ccc(OCCCCOc3ccc(C#N)cc3)cc2)c1C#N,Serotype 2 (group B),HELA-OHIO,cytopathic effect,EC50,,>2 µM
CC1(C)COC(c2ccc(OCCN3CCN(c4ccc(Cl)nn4)CC3)cc2)=N1,17 serotypes,,,inhibition,32 µg/mL,53%
CN(C)c1nc(C(F)(F)F)nc2c1ncn2Cc1ccc(F)cc1,Serotype 31,M-HELA,plaque count,inhibition,8 µM,47%
N=CCCCCNC(=O)C1CCC(N)=N1,Serotype 2,,,MIC,,>100 µg/mL
CSc1nsc(-c2ccc(OCCc3ccccc3)cc2)c1C#N,Serotype 51 (group B),HELA-OHIO,cytopathic effect,EC50,,>20 µM
CCOc1cc(O)c(C(=O)/C=C/c2ccc(OC)cc2)c(OC)c1,100 serotypes,,,inhibition,0.022 µg/mL,18%

Percent inhibition refers to the dose given; in toxicity tests it is the harm to the cells. Lines come from different laboratories, so protocols vary. ECn: concentration that inhibits the pathogen or its effect by n%. Two numbers with a dash give a range or band. A number after MIC or MFC names an inhibition level or a share of isolates.